Earlier results in patent US10144952B2, “Stabilization and isolation of extracellular nucleic acids” (QIAGEN GmbH, priority 2013, dated 2018).

Biological target: anthrax lethal factor, a metalloprotease (Bacillus anthracis, UniProt P15917)
Conditions: at ~20 μM; cited from earlier work

For `FC(F)(F)c1cccc(-c2csc(C3COc4ccccc4O3)n2)c1` (stereo not shown), the “effect on activity of anthrax lethal factor” value is given as “assisted cleavage of BID, a proapoptotic protein. Weakly affects”.
